PubChem BioAssay AID504761 – Drosophila RNAi Screening Center | 2011
Screen: 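Genome-wide fly cell screen for genes dengue virus requires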 (primary screen). System: D.Mel-2 cells from Drosophila. Reagents: long dsRNA against Drosophila genes. Conditions: infection with dengue virus type 2; dose and infection time not stated. Detection: 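Per well on two replicate plates, imaging gave the percent of cells positive for viral envelope protein, ranked by infection, and a nuclear count of cells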. Scale: infection score: higher = more virus-infected cells; cell count: higher = more cells in the well. Hit rule: 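Very low infection ranking in both replicate wells (chance probability at most 0.065), then a retest showing infection dropped 1.5-fold or more at p below 0.05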. Calls: active = confirmed: knock-down lowers infection; inactive = not picked or not confirmed.
In all, the deposit lists about 22,000 reagents; shown is a random part of those with a known target gene and a result. Over the whole deposit, 116 (0.52%) got an active call. 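Calls depend on retest data that are not deposited; infection was ranked per plate without normalising between plates; the unit of the infection score is not given.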 Raw values vary from plate to plate and are shown uncorrected. The numbers tell different reagents against one gene apart. A plus sign joins genes that one reagent is predicted to hit. Not given: the amount of reagent, the time to read-out.

Gene | reagent no. | infection score, replicate 1 | infection score, replicate 2 | cell count, replicate 1 | cell count, replicate 2 | outcome
SC35 (SR family splicing factor SC35) | 1 | 5.45 | 5.59 | 5502 | 5777 | inactive
SC35 (SR family splicing factor SC35) | 2 | 0.91 | 7.86 | 6034 | 5486 | inactive
SC35 (SR family splicing factor SC35) | 3 | 3.7 | 6.2 | 6517 | 7290 | inactive
CG13362 | 1 | 9.56 | 0.98 | 4165 | 6866 | inactive
CG13362 | 2 | 4.26 | 10.8 | 6580 | 5738 | inactive
Arr1 (Arrestin 1) | 1 | 1.5 | 1.11 | 4605 | 6665 | inactive
CG14330 | 1 | 2.58 | 1.23 | 6193 | 6513 | inactive
Fie (Fire exit) | 1 | 7.06 | 7.59 | 5112 | 4336 | inactive
CG4953 | 1 | 25.8 | 9.42 | 6298 | 6296 | inactive
Slh (SLY-1 homologous) | 1 | 2.47 | 1.48 | 5915 | 6005 | inactive
CG10859 | 1 | 16.3 | 12.2 | 6655 | 5745 | inactive
CG13068 | 1 | 0.53 | 4.6 | 6247 | 5785 | inactive
CG13068 | 2 | 3.51 | 10.4 | 6515 | 5997 | inactive
CG4476 | 1 | 1.19 | 1.83 | 5894 | 6235 | inactive
CG4476 | 2 | 8.73 | 5.58 | 6769 | 6932 | inactive
CG31230 | 1 | 2.88 | 5.04 | 6418 | 7207 | inactive
CG31230 | 2 | 1.6 | 3.45 | 6832 | 5657 | inactive
CG6654 | 1 | 9.53 | 31 | 6802 | 5488 | inactive
CG33284 | 1 | 3.19 | 16.9 | 6394 | 6718 | inactive
CG33284 | 2 | 9.38 | 20.2 | 5792 | 5502 | inactive
TfIIB (Transcription factor IIB) | 1 | 4.51 | 7.35 | 5947 | 6111 | inactive
CG14500 | 1 | 5.05 | 7.68 | 2656 | 6676 | inactive
CG33964 + CG13175 | 1 | 14.9 | 11.2 | 5464 | 6670 | inactive
CG33964 + CG13175 | 2 | 14 | 4.07 | 5564 | 6873 | inactive
CG33964 + CG13175 | 3 | 7.15 | 9.37 | 6212 | 4707 | inactive
aralar1 | 1 | 7.33 | 3.5 | 6112 | 6391 | inactive
aralar1 | 2 | 9.34 | 8.28 | 6583 | 6800 | inactive
aralar1 | 3 | 7.09 | 7.13 | 6250 | 5833 | inactive
ms(2)35Ci (male sterile (2) 35Ci) | 1 | 1.37 | 1.71 | 5915 | 5847 | inactive
CG12420 | 1 | 15.1 | 5.08 | 6433 | 6416 | inactive
bin3 (bicoid-interacting protein 3) | 1 | 10.8 | 11.7 | 5518 | 6783 | inactive
Mpv17 (Mitochondrial inner membrane protein MPV17) | 1 | 2.89 | 1.72 | 6682 | 6289 | inactive
CG15529 | 1 | 7.63 | 4.85 | 6329 | 5789 | inactive
CG32119 | 1 | 13.3 | 6.43 | 1966 | 5565 | inactive
CG32119 | 2 | 2.71 | 1.14 | 6459 | 6924 | inactive
CG32119 | 3 | 4.41 | – | 2130 | 271 | inactive
cpa (capping protein alpha) | 1 | 15.2 | 13.1 | 5692 | 5844 | inactive
Nepl11 (Neprilysin-like 11) | 1 | 2.55 | 2.99 | 6557 | 6966 | inactive
CG11041 | 1 | 1.32 | 5.15 | 5966 | 5670 | inactive
CG11041 | 2 | 18.7 | 10.8 | 5849 | 5696 | inactive
Pomp | 1 | 13.2 | 5.35 | 1507 | 2167 | inactive
Pomp | 2 | 10.7 | 11.4 | 6413 | 6258 | inactive
rasp | 1 | 0.29 | 3.04 | 6639 | 6062 | inactive
Grd (Glycine receptor) | 1 | 3.16 | 1.82 | 5953 | 6254 | inactive
Grd (Glycine receptor) | 2 | 10.4 | 11.4 | 4638 | 1843 | inactive
CG6225 | 1 | 14.5 | 4.08 | 3098 | 5000 | inactive
natalisin | 1 | 2.44 | 15.3 | 6397 | 6122 | inactive
natalisin | 2 | 5.13 | 12.1 | 5343 | 5097 | inactive
natalisin | 3 | 9.46 | 7.47 | 5348 | 6173 | inactive
CG4382 | 1 | – | – | 461 | 424 | inactive
CG4382 | 2 | – | – | 376 | 350 | inactive
PIG-N (Phosphatidylinositol glycan anchor biosynthesis class N) | 1 | 13 | 9.12 | 5901 | 6719 | inactive
Gpdh1 (Glycerol-3-phosphate dehydrogenase 1) | 1 | 1.41 | 2.08 | 6308 | 7158 | inactive
Gpdh1 (Glycerol-3-phosphate dehydrogenase 1) | 2 | 0.78 | 2.61 | 5800 | 6523 | inactive
CG4854 | 1 | 0.89 | 0.7 | 6288 | 6281 | inactive
CG4854 | 2 | 6.48 | 10.2 | 6911 | 6621 | inactive
CG11110 | 1 | 5.21 | 1.35 | 6353 | 6674 | inactive
CG11110 | 2 | 4.57 | 21.5 | 6279 | 5998 | inactive
